{"sequences": {"note": "Sequences of proteins named here, by UniProt entry; tags and fusion partners are left off. Residues count along the entry.", "UniProt Q93009, 62-205": "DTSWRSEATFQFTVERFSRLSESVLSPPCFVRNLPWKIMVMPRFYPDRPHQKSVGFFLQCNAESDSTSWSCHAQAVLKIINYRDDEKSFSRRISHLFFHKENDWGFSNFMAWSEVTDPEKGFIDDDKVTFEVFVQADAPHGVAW"}, "source": "paper PMC3589550", "about": "(Nature structural & molecular biology, 2011)", "biological_target": "HAUSP TRAF domain (HAUSP^62–205) (Homo sapiens, UniProt Q93009)", "type": "binding", "details": "ITC; deletion of upstream region", "data": [{"smiles": "CSCC[C@H](NC(=O)CNC(=O)[C@H](CO)NC(=O)[C@@H](NC(=O)[C@H](CO)NC(=O)[C@H](C)NC(=O)CNC(=O)[C@@H](N)CCC(=O)O)[C@@H](C)O)C(=O)O", "note": "[vIRF4^209–216]", "values": [{"measurement": "fold decrease in TRAF binding affinity compared with vIRF4^202–216", "result": 25, "unit": "fold"}]}]}
